Patent EP4039094A1, “NOVEL ANTIFUNGAL COMPOUNDS” (Max-Planck-Gesellschaft zur Förderung der Wissenschaften …, priority 2021, dated 2022)

The chains behind the UniProt entries cited, without tags or fusion partners. Residues count along the entry.
UniProt A0A0D1C5E3, 24-129 limits assumed: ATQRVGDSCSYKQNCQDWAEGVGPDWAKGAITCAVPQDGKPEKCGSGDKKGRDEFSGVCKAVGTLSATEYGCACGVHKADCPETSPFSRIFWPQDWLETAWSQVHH
UniProt A0A0D1CU07, 29-515 limits assumed: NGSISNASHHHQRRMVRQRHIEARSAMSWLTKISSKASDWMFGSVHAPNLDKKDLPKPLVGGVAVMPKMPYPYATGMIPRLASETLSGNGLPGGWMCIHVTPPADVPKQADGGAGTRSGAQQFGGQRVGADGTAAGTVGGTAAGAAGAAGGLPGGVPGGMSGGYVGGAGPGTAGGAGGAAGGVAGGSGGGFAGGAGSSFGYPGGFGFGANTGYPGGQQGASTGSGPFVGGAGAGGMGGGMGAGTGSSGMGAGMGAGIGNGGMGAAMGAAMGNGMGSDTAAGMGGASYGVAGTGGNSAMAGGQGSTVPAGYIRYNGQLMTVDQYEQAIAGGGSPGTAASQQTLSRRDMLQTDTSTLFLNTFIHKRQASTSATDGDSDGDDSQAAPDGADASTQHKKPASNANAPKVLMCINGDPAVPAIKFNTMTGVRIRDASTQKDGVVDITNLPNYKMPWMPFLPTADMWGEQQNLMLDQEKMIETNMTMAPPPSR
UniProt A0A0D1EAN2, 25-327 limits assumed: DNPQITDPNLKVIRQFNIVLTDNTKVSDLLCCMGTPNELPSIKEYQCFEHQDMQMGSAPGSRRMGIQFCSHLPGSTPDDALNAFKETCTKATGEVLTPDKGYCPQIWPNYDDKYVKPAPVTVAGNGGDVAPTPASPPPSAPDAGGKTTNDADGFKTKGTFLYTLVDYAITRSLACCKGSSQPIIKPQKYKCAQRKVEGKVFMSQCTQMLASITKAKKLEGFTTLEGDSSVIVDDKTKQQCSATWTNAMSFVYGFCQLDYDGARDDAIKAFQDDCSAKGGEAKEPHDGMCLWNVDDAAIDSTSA

Biological target: Stp1/Stp4/Stp3 subcomplex (Mycosarcoma maydis, UniProt A0A0D1C5E3+A0A0D1CU07+A0A0D1EAN2)
Test: Alamar Blue viability assay in S. cerevisiae 2-hybrid strain NL73 (viability depends on Stp complex formation)
Type: cell-based, U. maydis
Conditions: for activity in the Alamar Blue assay with NL73: result in words
[1] = inhibitory activity on NL73 viability, Table 6

SMILES | IC50 [1] [nM] | IC50 (Alamar Blue assay, Table 7) [nM] | activity in the Alamar Blue assay with NL73
CCOc1ccc(-n2c3c(c(SCc4ccccc4F)nc2=O)CCC3)cc1 | 9400 | – | –
O=c1nc(SCc2ccccc2F)c2c(n1C1CCCC1)CCC2 | – | 600 | appreciable activity
N#CCSc1nc(=O)n(C2CCCC2)c2c1CCC2 | 2000 | – | –
CCn1c2c(c(SC(N)c3cccc4ccccc34)nc1=O)CCC2 (stereo not shown) | 2000 | – | –
COc1ccc(-n2c3c(c(SCc4ccccc4C)nc2=O)CCC3)cc1 | 4900 | – | –
O=c1nc(SCc2ccc(F)cc2)c2c(n1C1CCCC1)CCC2 | – | 810 | appreciable activity
CCCn1c2c(c(SCc3ccc(C)cc3)nc1=O)CCC2 | – | 5000 | appreciable activity
